Assay results taken from PubChem BioAssay AID588549 (Broad Institute, 2011).
This is a selection; strong and weak results do not stand in their true shares. The source made the active and inactive calls. No stated cut-off is given here; in the data, active means inhibition above about 8.5% (passing the limit was not always enough); inconclusive means no clear call, values can overlap the other calls.

test system: Mycobacterium tuberculosis FadD28 fatty-acid-AMP ligase; assay: inhibitors of FadD28 bisubstrate probe binding, primary screen, biochemical, fluorescence polarization, single point (AID 588549); conditions: at 12.5 µM, hits give high values

SMILES	inhibition
CN(C(=O)Cc1ccccc1)[C@@H]1CC[C@]2(CCCO2)C[C@H]1N1CCCC1	inactive: -2.69%
